Measured values from several laboratories, pooled; numbers as filed in NIAID ChemDB.

Common to all: growth or infection tests; organism: Hepatitis B virus; endpoint: EC50

Rows are shuffled and stem from different studies. ECn: concentration that inhibits the pathogen or its effect by n%. Blank or dashed fields: not listed here.

{"smiles": "Nc1ccn([C@@H]2C=C[C@H](CO)O2)c(=O)n1", "strain": "RTM204", "cell line": "HEPAD79", "result": "<0.96 µM"}
{"smiles": "Nc1ncnc2c1cnn2CCOCP(=O)(O)O", "cell line": "HB611", "result": "17 µM"}
{"smiles": "Nc1ccn([C@@H]2CS[C@H](CO)O2)c(=O)n1", "cell line": "HepG2", "result": "0.005 µM"}
{"smiles": "Cc1cn([C@H]2O[C@@H](CO)[C@H](O)[C@H]2F)c(=O)[nH]c1=O", "strain": "L526M", "result": ">100 µM"}
{"smiles": "Cc1cn([C@@H]2C[C@@H](N)[C@H](CO)O2)c(=O)[nH]c1=O", "cell line": "HepG2.2.15", "result": ">10 µM"}
{"smiles": "O=P(O)(O)COC(CO)Cn1cnc2c(=S)nc[nH]c21", "cell line": "HB611", "result": ">400 µM"}
{"smiles": "Nc1ncnc2c1ncn2CCOCP(=O)(O)O", "strain": "Mutation M552I", "cell line": "Huh7", "result": "4.5 µM"}
{"smiles": "Nc1ccn([C@@H]2C=C(F)[C@H](CO)O2)c(=O)n1", "strain": "RTM204", "cell line": "HEPAD79", "result": "<2.3 µM"}
{"smiles": "COc1cc(C2Oc3cc(O)cc(O)c3C(=O)C2OC2O[C@H](CO)[C@@H](O)[C@H](O)[C@H]2O)ccc1O", "cell line": "HepG2.2.15", "method": "PCR", "result": "16.42 µM"}
{"smiles": "N#Cc1c(N)nc(N)nc1OCCOCP(=O)(O)O", "cell line": "HEPAD79", "method": "PCR", "result": "0.5 µM"}
{"smiles": "COC(=O)[C@]1(C)CC[C@]2(C)CC[C@]3(C)C4=CCc5c(cc(OC)c(OC)c5C)[C@]4(C)CC[C@@]3(C)[C@@H]2C1", "cell line": "HepG2 2.2.15", "method": "ELISA / antigen", "result": ">100 µM"}
{"smiles": "Cc1cn([C@H]2C=C[C@@H](CO)O2)c(=O)[nH]c1=O", "cell line": "HB611", "result": "44.7 µg/mL"}
{"smiles": "Nc1nc(=O)n([C@@H]2C[C@@H](O)[C@H](CO)O2)cc1Cl", "cell line": "HepG2.2.15", "result": "10 µM"}
{"smiles": "C=C(CCC=C(C)C)[C@H]1CC[C@]2(C)[C@@H]1[C@H](O)C[C@@H]1[C@@]3(C)CC[C@H](O)C(C)(C)[C@@H]3[C@@H](OC3OC(CO)C(O)C(O)C3OC3OC(C)C(O)C(O)C3O)C[C@]12C", "cell line": "HepG2.2.15", "method": "PCR", "conditions": "4 d", "result": "3.206 µM"}
{"smiles": "C[C@H](Cn1cnc2c(N)nc(N)nc21)OCP(=O)(O)O", "cell line": "HEPAD79", "method": "PCR", "result": "1 µM"}
{"smiles": "Nc1nc(=O)n([C@H]2O[C@@H](CO)C=C2F)cc1F", "strain": "RTM204", "cell line": "HepAD38", "result": "<0.63 µM"}
{"smiles": "COC(C)c1ccc(O)c(O)c1", "cell line": "HepG2.2.15", "method": "PCR", "result": "199 µM"}
{"smiles": "Nc1nc(N)c(Br)c(OCCOCP(=O)(O)O)n1", "cell line": "HEPAD79", "method": "PCR", "result": "17.5 µM"}
{"smiles": "Cc1cn(CCOCP(=O)(O)O)c(=O)[nH]c1=O", "cell line": "HB611", "result": "200 µM"}
{"smiles": "CC1=C(O)C(=O)C=C2C1=CC=C1[C@@]2(C)CC[C@@]2(C)[C@@H]3C[C@](C)(C(=O)N(C)C)CC[C@]3(C)CC[C@]12C", "cell line": "HepG2 2.2.15", "method": "ELISA / antigen", "result": "11.9 µM"}
{"smiles": "Nc1nc(N)c2ncn(CCOCP(=O)(O)O)c2n1", "cell line": "HepAD38", "method": "PCR", "result": "0.4 µM"}
{"smiles": "Nc1ccn([C@H]2CC[C@@H](CO)O2)c(=O)n1", "cell line": "HB611", "result": "0.76 µg/mL"}
{"smiles": "Cc1cc(OCCOCP(=O)(O)O)nc(N)n1", "cell line": "HepAD38", "method": "PCR", "result": ">300 µM"}
{"smiles": "COc1ccc([C@H]2OC[C@H]3[C@@H]2CO[C@@H]3c2cc(OC)c(O)c(OC)c2)cc1O", "cell line": "HepG2.2.15", "method": "ELISA / antigen", "result": "56.11 µM"}
{"smiles": "Nc1ccn([C@@H]2CS[C@H](CO)O2)c(=O)n1", "strain": "Mutations L526M M550V", "cell line": "HepG2", "result": "86.2 µM"}
{"smiles": "Nc1ncnc2c1ncn2C[C@@H](CO)OCP(=O)(O)O", "cell line": "HB611", "result": "0.35 µg/mL"}
{"smiles": "C[C@@H](Cn1cnc2c(N)nc(N)nc21)OCP(=O)(O)O", "cell line": "HepAD38", "method": "PCR", "result": "7.6 µM"}
{"smiles": "CC1=C(O)C(=O)C=C2C1=CC=C1[C@@]2(C)CC[C@@]2(C)[C@@H]3C[C@](C)(C(=O)N4CCCC4)CC[C@]3(C)CC[C@]12C", "cell line": "HepG2 2.2.15", "method": "ELISA / antigen", "result": "21.7 µM"}
{"smiles": "Cc1cn([C@@H]2C[C@@H](O)[C@H](CO)O2)c(=O)nc1N", "cell line": "HepG2.2.15", "result": "0.24 µM"}
{"smiles": "CCCOC(=O)[C@]1(C)CC[C@]2(C)CC[C@]3(C)C4=CC=C5C(=CC(=O)C(O)=C5C)[C@]4(C)CC[C@@]3(C)[C@@H]2C1", "cell line": "HepG2 2.2.15", "method": "ELISA / antigen", "result": "25.4 µM"}
{"smiles": "Nc1ncnc2c1ncn2[C@H]1O[C@@H](CO)[C@H](O)[C@@H]1O", "cell line": "HepG2.2.15", "result": "0.8 µM"}
{"smiles": "Nc1nc(N)c2ncn([C@H]3CO[C@@H](CO)O3)c2n1", "strain": "M550I", "result": "65 µM"}
{"smiles": "O=C(O)c1ccccc1O", "cell line": "HepG2.2.15", "method": "PCR", "result": "25.8 µM"}
{"smiles": "COC(=O)[C@]1(C)CC[C@]2(C)CC[C@]3(C)C4=CC=C5C(=CC(=O)C(OC)=C5C)[C@]4(C)CC[C@@]3(C)[C@@H]2C1", "cell line": "HepG2 2.2.15", "method": "ELISA / antigen", "result": "19.9 µM"}
{"smiles": "Nc1ncnc2c1ncn2CCOCP(=O)(O)O", "cell line": "HB611", "result": "0.054 µg/mL"}
{"smiles": "Nc1cc(SCCOCP(=O)(O)O)nc(N)n1", "cell line": "HepAD38", "method": "PCR", "result": "1.8 µM"}
{"smiles": "CC[C@H]1OC(O[C@@H]2[C@@H]3[C@](C)(CC[C@H]2C(C)C)[C@H](O)CC[C@]3(C)O)[C@H](O)[C@@H](O)[C@@H]1O", "cell line": "HepG2.2.15", "method": "ELISA / antigen", "result": "15.02 µM"}

The first 4 rows once more:

smiles | strain | cell line | method | conditions | result
Nc1ccn([C@@H]2C=C[C@H](CO)O2)c(=O)n1 | RTM204 | HEPAD79 |  |  | <0.96 µM
Nc1ncnc2c1cnn2CCOCP(=O)(O)O |  | HB611 |  |  | 17 µM
Nc1ccn([C@@H]2CS[C@H](CO)O2)c(=O)n1 |  | HepG2 |  |  | 0.005 µM
Cc1cn([C@H]2O[C@@H](CO)[C@H](O)[C@H]2F)c(=O)[nH]c1=O | L526M |  |  |  | >100 µM